Earlier results, collected in publication PMC10409496.
pKd: −log10 of the molar value.

Target: neuropilin-1 (Homo sapiens) (UniProt O14786)

SARS-CoV-2 spike (from UniProt P0DTC2)
pKd: 4.82
